Results of unrelated studies side by side (data: NIAID ChemDB).

Shared fields: enzyme or target tests

Conditions beyond the fields shown may differ between rows.

SMILES,strain,target,method,organism,measure,dose,result
O=C1c2c(O)c(=O)c(-c3ccccn3)cn2CCN1Cc1ccc(Cl)c(Cl)c1,,Integrase,ELISA,HIV-1,IC50,,<0.01 µM
Cc1ccccc1-c1cncc(N2CCN(c3ccccc3)CC2)n1,,UL97 kinase,,Cytomegalovirus,IC50,,<100 µM
O=c1c(CO)cn2ccn(Cc3cccc(Cl)c3)c(=O)c2c1O,,Integrase,ELISA,HIV-1,IC50,,0.01–0.1 µM
NC(=O)c1ccccc1-c1cncc(N2CCN(c3ccncc3)CC2)n1,,UL97 kinase,,Cytomegalovirus,inhibition,10 µM,>15%
O=C(O)c1ccc2c(c1)nc(-c1ccc3nc(-c4ccccc4[N+](=O)[O-])ccc3c1)n2C1CCCCC1,,NS5B polymerase,,Hepatitis C virus,inhibition,33 µM,96.61%
CNC(=O)c1cn2c(c(O)c1=O)C(=O)N(Cc1ccc(Cl)cc1)CC2,,Integrase,ELISA,HIV-1,IC50,,0.01–0.1 µM
COc1cc(Br)c2oc(-c3ccc4cc(-c5nc6cc(C(=O)O)ccc6n5C5CCCCC5)ccc4n3)cc2c1,,NS5B polymerase,,Hepatitis C virus,inhibition,100 µM,100%
COc1cc(N(C)Cc2ccc3nc(N)nc(N)c3n2)cc(OC)c1OC,TYPE 1,Dihydrofolate reductase,,Cryptosporidium parvum,IC50,,0.075 µM
CC(=O)Nc1cn2ccn(CCCc3c(F)cccc3Cl)c(=O)c2c(O)c1=O,,Integrase,ELISA,HIV-1,IC50,,0.01–0.1 µM
COc1ccc(-c2ccccc2C)c(-c2ccc3cc(-c4nc5cc(C(=O)O)ccc5n4C4CCCCC4)ccc3n2)c1,,NS5B polymerase,,Hepatitis C virus,inhibition,33 µM,103%
CCOc1ccc(-c2cncc(N3CCN(c4ccccc4OC)CC3)n2)cc1,,UL97 kinase,,Cytomegalovirus,inhibition,10 µM,>15%
O=C1c2c(O)c(=O)ccn2CCN1Cc1cccc(Cl)c1,,Integrase,ELISA,HIV-1,IC50,,0.01–0.1 µM
O=S1(=O)CCC(c2c(-c3ccc(OCc4ccccc4)cc3)cnc3c(-c4nn[nH]n4)cnn23)CC1,,RNA-dependent RNA polymerase,,Hepatitis C virus,IC50,,>10 µM
Cc1cn(Cc2ccc(Cl)c(Cl)c2)c(=O)c2c(O)c(=O)ccn12,,Integrase,ELISA,HIV-1,IC50,,<0.01 µM
COc1cc(CCc2cc3c(N)nc(N)nc3s2)c(Br)c(OC)c1OC,TYPE 1,Dihydrofolate reductase,,Cryptosporidium parvum,IC50,,5.1 µM
Cc1ccc(-c2cncc(N3CCN(c4ccccn4)CC3)n2)cc1,,UL97 kinase,,Cytomegalovirus,IC50,,<10 µM
O=C(O)C[C@H](Cc1ccccc1)NC(=O)c1cnn2c(C3CCCCC3)c(-c3ccc(F)cc3F)cnc12,,RNA-dependent RNA polymerase,,Hepatitis C virus,IC50,,<1 µM
O=C(O)c1ccc2c(c1)nc(-c1ccc3nc(-c4ccc5c(c4)OCO5)ccc3c1)n2C1CCCCC1,,NS5B polymerase,,Hepatitis C virus,inhibition,100 µM,100%
COc1cc(CCNc2ccc3nc(N)nc(N)c3c2Cl)cc(OC)c1OC,TYPE 2,Dihydrofolate reductase,,Cryptosporidium parvum,IC50,,>10 µM
CNC(=O)c1cn2ccn(Cc3ccc(F)c(Cl)c3)c(=O)c2c(O)c1=O,,Integrase,ELISA,HIV-1,IC50,,<0.01 µM
COc1cccc(-c2cncc(N3CCN(c4ccccc4F)CC3)n2)c1,,UL97 kinase,,Cytomegalovirus,IC50,,<10 µM
CNC(=O)c1ccc(-c2ccccc2)c(-c2ccc3cc(-c4nc5cc(C(=O)O)ccc5n4C4CCCCC4)ccc3n2)c1,,NS5B polymerase,,Hepatitis C virus,inhibition,33 µM,101%
CS(=O)(=O)c1cccc(Oc2ccc(-c3cnc4c(-c5nn[nH]n5)cnn4c3C3CCCCC3)cc2)c1,,RNA-dependent RNA polymerase,,Hepatitis C virus,IC50,,<1 µM
Fc1ccc(-c2cncc(N3CCN(c4ccc(F)cc4)CC3)n2)cc1,,UL97 kinase,,Cytomegalovirus,IC50,,<100 µM
CC(C)(C)OC(N)=NCCNc1cc(-c2ccccc2)nc2ccc(-c3nc4cc(C(=O)O)ccc4n3C3CCCCC3)cc12,,NS5B polymerase,,Hepatitis C virus,inhibition,33 µM,95.64%
O=C(O)c1cc2nc(-c3ccc(Oc4ccccc4)cc3)cc(-c3cccc(Cl)c3)n2n1,,RNA-dependent RNA polymerase,,Hepatitis C virus,IC50,,1–10 µM
COc1ccc(N2CCN(c3cncc(-c4ccc(CN)cc4)n3)CC2)cc1OC,,UL97 kinase,,Cytomegalovirus,inhibition,10 µM,>15%
O=C(O)c1ccc2c(c1)nc(-c1ccc3nc(-c4ccc(Oc5ccccc5)cc4)ccc3c1)n2C1CCCCC1,,NS5B polymerase,,Hepatitis C virus,inhibition,33 µM,98.85%
O=C(N[C@H](C(=O)O)c1ccc(O)cc1)c1cnn2c(C3CCCCC3)c(-c3ccc(F)cc3)cnc12,,RNA-dependent RNA polymerase,,Hepatitis C virus,IC50,,<1 µM
O=C1c2c(O)c(=O)c(-c3nccs3)cn2CCN1Cc1cc2ccccc2o1,,Integrase,ELISA,HIV-1,IC50,,<0.01 µM
CCCC(C)NC(=O)c1ccc(N(C)Cc2ccc3nc(N)nc(N)c3n2)cc1,TYPE 1,Dihydrofolate reductase,,Cryptosporidium parvum,IC50,,1.3 µM
O=C(O)c1cc2nc(-c3ccc(Cl)cc3)cc(-c3cccc(OCc4ccccc4)c3)n2n1,,RNA-dependent RNA polymerase,,Hepatitis C virus,IC50,,1–10 µM
NC(=O)c1ccc(-c2cnc(N)c(N3CCN(c4ccncc4)CC3)n2)cc1,,UL97 kinase,,Cytomegalovirus,inhibition,1 µM,<50%
NC(=O)C(CC(=O)O)NC(=O)c1cnn2c(C3CCCCC3)c(-c3ccc(F)cc3F)cnc12,,RNA-dependent RNA polymerase,,Hepatitis C virus,IC50,,<1 µM
Cc1cc(-c2ccc3cc(-c4nc5cc(C(=O)O)ccc5n4C4CCCCC4)ccc3n2)c(O)c([N+](=O)[O-])c1,,NS5B polymerase,,Hepatitis C virus,inhibition,33 µM,104%
O=C(N[C@@H](Cc1ccc(O)cc1)C(=O)O)c1cc2nc(-c3ccco3)c(C3CCCCC3)c(=O)n2[nH]1,,RNA-dependent RNA polymerase,,Hepatitis C virus,IC50,,<1 µM
O=C(NC(Cc1cnc[nH]1)C(=O)O)c1ccc2c(c1)nc(-c1ccc3nc(-c4ccccc4)cnc3c1)n2C1CCCCC1,,NS5B polymerase,,Hepatitis C virus,inhibition,100 µM,94.24%
Clc1cccc(N2CCN(c3cncc(-c4ccccc4Oc4ccccc4)n3)CC2)c1,,UL97 kinase,,Cytomegalovirus,IC50,,<100 µM
CS(=O)(=O)CCNC(=O)c1cn2ccn(Cc3cccc(Cl)c3)c(=O)c2c(O)c1=O,,Integrase,ELISA,HIV-1,IC50,,0.01–0.1 µM

A second listing of 2 rows from above:

SMILES	strain	target	method	organism	measure	dose	result
O=C(O)C[C@H](Cc1ccccc1)NC(=O)c1cnn2c(C3CCCCC3)c(-c3ccc(F)cc3F)cnc12		RNA-dependent RNA polymerase		Hepatitis C virus	IC50		<1 µM
O=C(O)c1ccc2c(c1)nc(-c1ccc3nc(-c4ccc5c(c4)OCO5)ccc3c1)n2C1CCCCC1		NS5B polymerase		Hepatitis C virus	inhibition	100 µM	100%

Blank or dashed fields: not listed here. Inhibition is in % at the dose shown (toxicity tests: loss of growth or viability). ICn: concentration for n% inhibition. Two numbers with a dash give a range or band.